Results taken from PubChem BioAssay AID504406 (Broad Institute, 2011).
The entries are a selection whose mix differs from that of the whole data set. The source made the active and inactive calls. No stated cut-off is given here; in the data, active means inhibition above about 10% (passing the limit was not always enough); inconclusive means no clear call, values can overlap the other calls.

Amino acid sequences for entries named in this document (tags omitted).
UniProt P9WIQ1, whole entry: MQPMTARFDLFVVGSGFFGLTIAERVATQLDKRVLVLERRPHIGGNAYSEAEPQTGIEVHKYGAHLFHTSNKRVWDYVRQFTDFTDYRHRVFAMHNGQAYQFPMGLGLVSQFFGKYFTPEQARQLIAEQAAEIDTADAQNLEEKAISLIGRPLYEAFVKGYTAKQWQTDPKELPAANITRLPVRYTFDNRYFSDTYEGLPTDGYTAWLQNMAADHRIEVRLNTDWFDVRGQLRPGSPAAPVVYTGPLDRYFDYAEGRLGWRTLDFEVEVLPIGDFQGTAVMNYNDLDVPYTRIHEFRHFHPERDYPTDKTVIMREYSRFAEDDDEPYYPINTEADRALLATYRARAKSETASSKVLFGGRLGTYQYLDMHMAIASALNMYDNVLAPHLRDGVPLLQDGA

The molecules below were run against UDP-galactopyranose mutase (Mycobacterium tuberculosis (strain ATCC 25618 / H37Rv)) (UniProt P9WIQ1) (assay: blockers of Mtb UDP-galactopyranose mutase – biochemical, fluorescence polarization, single point, primary screen (AID 504406)). Conditions: purified UGM, fluorescence polarization probe displacement; at 10 µM; active compounds read high.
In the case of `COc1ccc(NP(C)(=O)Oc2ccccc2OC)cc1` (configuration not stated), the inhibition is reported as inactive: 1.4%. For `CN(C)CCOC(=O)C(O)(c1ccccc1)C1CCCCC1` (configuration not stated), the inhibition was inactive: 0.108%. With `COc1ccc(OP(C)(=O)Nc2cccc(Br)c2)cc1` (configuration not stated) the inhibition was inactive: 0.692%. In the case of `O=[N+]([O-])c1cc([N+](=O)[O-])c(NCC2CCS(=O)(=O)C2)c([N+](=O)[O-])c1` (configuration not stated), the inhibition is reported as inactive: 1.69%. For `O=[N+]([O-])c1ccc(OP2(=O)COCCO2)cc1` (configuration not stated), the inhibition was inactive: -5.05%. For `CCOP(C)(=S)SCC(=O)NC(C)(CC)C(=O)O` (configuration not stated), the inhibition was inactive: 0.346%. With `CP(=O)(Nc1ccc(SC(F)(F)F)cc1)Oc1ccc(F)cc1` (configuration not stated) the inhibition was inactive: 0.31%. `Cc1ccccc1NP(C)(=O)Nc1ccccc1C` was tested, and the inhibition was inactive: 0.384%. `CP(=O)(Nc1ccc2c(c1)OCCO2)Oc1ccccc1` (configuration not stated) was tested, and the inhibition was inactive: -0.473%. For `CC(C)c1ccc(OP(C)(=O)Nc2ccc(SC(F)(F)F)cc2)cc1` (configuration not stated), the inhibition was inactive: 1.11%. For `CP(=O)(Nc1ccccc1F)Oc1ccccc1` (configuration not stated), the inhibition was inactive: 0.127%. In the case of `O=C(OCCN1CCN(CCOCc2ccccc2)CC1)C(O)(c1ccccc1)c1ccccc1`, the inhibition is reported as inactive: 1.36%. `O=C(OC1CN2CCC1CC2)c1ccc([N+](=O)[O-])cc1` (configuration not stated) was tested, and the inhibition was inactive: 3.22%. With `COc1ccc(OP(C)(=O)Nc2ccc(SC(F)(F)F)cc2)cc1` (configuration not stated) the inhibition was inactive: 0.899%. `CCOC(=O)c1ccc(NP(C)(=O)Oc2ccc(F)cc2)cc1` (configuration not stated) was tested, and the inhibition was inactive: -0.419%. In the case of `O=[N+]([O-])c1cc([N+](=O)[O-])c(OC2CCCCC2O)c([N+](=O)[O-])c1` (configuration not stated), the inhibition is reported as inactive: -0.119%. In the case of `CCCCCOc1ccc(NP(C)(=O)Oc2ccc(Cl)cc2Cl)cc1` (configuration not stated), the inhibition is reported as inactive: -1.19%. For `CP(=O)(Nc1ccccc1)Oc1ccc(F)cc1` (configuration not stated), the inhibition was inactive: -0.17%. In the case of `CCN(CC)CCCOC(=O)C(O)(c1ccccc1)C1CCCCC1` (configuration not stated), the inhibition is reported as inactive: 0.95%. In the case of `COc1ccc(OP(C)(=O)Nc2ccccc2Br)cc1` (configuration not stated), the inhibition is reported as inactive: -0.892%. With `COc1ccccc1OP(C)(=O)Nc1ccc(C)c(C)c1` (configuration not stated) the inhibition was inactive: 0.356%. For `Cc1cc(C)cc(OP(C)(=O)Nc2cccc(C(F)(F)F)c2)c1` (configuration not stated), the inhibition was inactive: 0.584%. In the case of `CP(=O)(Nc1ccc(Cl)cc1Cl)Oc1ccccc1` (configuration not stated), the inhibition is reported as inactive: -1.18%. With `CP(=O)(OCCOc1ccccc1)OCCOc1ccccc1` the inhibition was inactive: -4.33%. `Cc1nc2ccc3ccccc3c2o1.O=[N+]([O-])c1cc([N+](=O)[O-])c(O)c([N+](=O)[O-])c1` was tested, and the inhibition was inactive: 1.81%. For `CN(C)CCOC(=O)C(O)(c1ccccc1)C1CCCC1` (configuration not stated), the inhibition was inactive: -6.18%. In the case of `COc1ccc(OP(C)(=O)Nc2ccccn2)cc1` (configuration not stated), the inhibition is reported as inactive: 0.957%.
